The results in this text go back to US20090004680A1.

The target of the assay is Mouse synaptosomes (BoNT/A acceptor on a mouse synaptosome preparation).

On to “Active BoNT/A (botulinum neurotoxin type A) (from UniProt P0DPI0 2-1296)”, for which the percent binding inhibition was greater than 20.
